Results of unrelated studies side by side (data: NIAID ChemDB).

All rows: whole-cell or culture tests; species: HIV-1

Conditions beyond the fields shown may differ between rows. Two numbers with a dash give a range or band. ECn is the concentration giving n% inhibition of infection, replication or growth. An empty or dashed field is not shown.

SMILES,cell line,strain or isolate,changes,endpoint,read by,value
CC(C)(C)[Si](C)(C)OC[C@@H]1CC[C@H](n2cnc3c(=O)n(CC(=O)OCc4ccccc4)cnc32)O1,CEM,IIIB,-,EC50,syncytia,>10 µM
Nc1ccn([C@H]2CC[C@@H](CO)O2)c(=O)n1,PBMC,RF,-,EC90,p24,0.09 µM
Fc1cccc(F)c1C1SCc2nc3ccccc3n21,MT-4,NDK,-,EC50,cytopathic effect,0.69 µM
OC[C@@H]1CS[C@H](n2cnc3c(Cl)ncnc32)C1,MT-4,-,-,EC50,cytopathic effect,>2.31 µM
CCCCCC/C=C\C/C=C\CCCCCCC(=O)O[C@H](COC(=O)CCCCCCCCCCCCCCC)COP(=O)([O-])OCC[NH3+],MOLT-4,-,-,EC50,p24 / ELISA,20 µM
C/C(CO)=C(/Br)Cn1ccc(N)nc1=O,MT-4,-,-,EC50,-,>100 µg/mL
CC(C)[C@H](NC(=O)Cc1ccccn1)C(=O)N[C@@H](Cc1ccccc1)[C@@H](O)[C@H](O)[C@H](Cc1ccccc1)NC(=O)[C@@H](NC(=O)Cc1ccccn1)C(C)C,MT-2,RF,-,EC90,plaque count / virus yield,1.3 µg/mL
O=P(c1ccccc1)(c1ccccc1)c1ccccc1,CEM,IIIB,-,EC50,cytopathic effect / XTT,0.58 µM
Nc1nc2c(ncn2C2CC(CO)CS2)c(=O)[nH]1,MT-4,-,-,EC50,cytopathic effect,>100 µM
CC(C)(C)NC(=O)c1ccccc1SC[C@@H](O)[C@H](Cc1ccccc1)NC(=O)[C@H](CC(N)=O)NC(=O)c1ccc2ccccc2n1,MT-2,-,-,EC50,-,0.41 µg/mL
CC1(C)[C@@H](O[C@H]2O[C@H](C(=O)O)[C@@H](O)[C@H](O)[C@H]2O[C@@H]2O[C@H](C(=O)O)[C@@H](O)[C@H](O)[C@H]2O)CC[C@]2(C)[C@H]3C(=O)C=C4[C@@H]5C[C@@](C)(C(=O)O)CC[C@]5(C)CC[C@@]4(C)[C@]3(C)CC[C@@H]12,MT-4,EVK,-,EC50,ELISA,<500 µg/mL
Nc1ncnc2c1ncn2CCOCP(=O)(O)O,MT-2,HXB2D (RT-K65R),RT-K65R,EC50,XTT,>120 µM
Cc1cn([C@H]2C[C@H](N=[N+]=[N-])[C@@H](CO)O2)c(=O)[nH]c1=O,CEM + CEM TK-,LAI,-,EC50,RT activity,>100 µM
Cc1ccnc2c1NC(=O)c1cccnc1N2C1CC1,H9,B8 (RT K101I K103N Y181C G190A),RT-K101I K103N Y181C G190A,EC50,p24,>10 µg/mL
Cc1cn([C@H]2C=C[C@@H](CO)O2)c(=O)[nH]c1=O,CEM + CEM/O,IIIB,-,EC50,syncytia,0.23 µM
CC[C@]1(c2ccccc2)Oc2cccnc2-n2cccc2C1=O,U-937,-,-,EC50,p24,0.41 µM
CC(C)=CCN1Cc2cc(Cl)cc3[nH]c(=S)n(c23)C[C@@H]1C,MT-4,-,RT-L74V,EC95,-,1.5 µM
O=c1[nH]cnc2c1ncn2[C@@H]1C[C@H](CO)CS1,MT-4,-,-,EC50,cytopathic effect,>100 µM
Nc1ccn([C@H]2CC[C@@H](CO)O2)c(=O)n1,HT4 + HT4 LacZ-1,RTMN(181 184) (RT M41L Y181C M184V T215Y),RT-M41L Y181C M184V T215Y,EC50,plaque count,0.94 µM
CO[P@](=O)(c1cc(C)cc(/C=C/C#N)c1)c1c(C(N)=O)[nH]c2ccc(Cl)c(F)c12,PBMC,WT (NL4-3),-,EC50,-,0.0015 µM
O=C1N(Cc2ccccc2)c2cscc2S(=O)(=O)N1Cc1ccccc1,CEM,-,RT-Y181C,EC50,syncytia,>10.4 µM
COC(=O)c1cc2c(c(OC)c1-c1ccc(N(C)C)cc1)OCO2,C8166,IIIB,SJP-L-5-resistant,EC50,fluorescence,>608 µM
CC(=O)c1ccc(S(=O)(=O)N(CC(C)C)C[C@@H](O)[C@H](Cc2ccccc2)NC(=O)O[C@H]2CO[C@H]3OCC[C@H]32)cc1,MT-4,PI RES(PR-L10M/I K20R M36I A71V G73S V77I I84V L90M) M2,PR-L10M/I K20R M36I A71V G73S V77I I84V L90M,EC50,cytopathic effect / MTT,0.0166 µM
COC(=O)CCc1cccc2c1OP(=O)(OC[C@@H]1C=C[C@H](n3cc(C)c(=O)[nH]c3=O)O1)OC2,CEM + CEM/O,IIIB,-,EC50,syncytia,0.09 µM
O=C(/C=C/c1ccc(O)c(O)c1/C=C/c1ccc(O)c(O)c1)O[C@H](Cc1ccc(O)c(O)c1)C(=O)O,MT-4,IIIB,-,EC50,p24 / antigen,2.07 µg/mL
CC(C)[C@H](NC(=O)OCc1ccccc1)C(=O)N[C@@H](Cc1ccccc1)[C@@H](O)[C@@H](NCc1ccccc1)C(=O)N[C@H](C(=O)NCc1cccnc1)C(C)C,MT-4,IIIB,-,EC50,cytopathic effect / MTT,0.59 µM
Cc1ccnc2c1NC(=O)c1cccnc1N2C1CC1,MT-4,HE,-,EC50,syncytia,0.02 µM
Cc1ccnc2c1NC(=O)c1cccnc1N2C1CC1,HT4 + HT4 LacZ-1,HXB2(181 184) (RT Y181C M184V),RT-Y181C M184V,EC50,plaque count,12.6 µM
CN1C(=O)N(Cc2ccccc2)S(=O)(=O)c2cscc21,CEM,-,RT-E138K,EC50,syncytia,≥324 µM
COC(=O)N[C@H](C(=O)N[C@@H](Cc1ccccc1)C[C@H](O)[C@H](Cc1ccccc1)NC(=O)[C@@H]1CN(c2ccccc2)C(=O)O1)C(C)(C)C,MT-4,NL4-3,-,EC50,cytopathic effect / MTT,1.03 µM
Fc1cccc(F)c1C1SCc2nc3ccccc3n21,CEM,IIIB,-,EC50,cytopathic effect / XTT,0.52 µM
CC(C)[C@H](NC(=O)OCc1ccccc1)C(=O)N[C@@H](Cc1ccccc1)[C@@H](O)[C@H](O)[C@H](Cc1ccccc1)NC(=O)[C@@H](NC(=O)OCc1ccccc1)C(C)C,MT-2,RF,-,EC90,plaque count / virus yield,0.09 µg/mL
CN(C[C@@H](CCN1CCC(CCCc2ccccc2)CC1)c1cccc(Cl)c1)S(=O)(=O)c1ccccc1,PBMC,YU-2 (M-tropic),-,EC50,p24,<12.5 µM
CC(C)(C)NC(=O)[C@@H]1C[C@@H]2CCCC[C@@H]2CN1C[C@@H](O)[C@H](Cc1ccccc1)NC(=O)[C@H](CC(N)=O)NC(=O)c1ccc2ccccc2n1,Macrophage,BaL,-,EC50,RT activity,0.017 µM
Nc1nc(=O)n([C@@H]2CC[C@H](CO)O2)cc1F,MT-4,IIIB,-,EC50,-,0.2 µM
Cc1cn([C@H]2C[C@H](N=[N+]=[N-])[C@@H](CO)O2)c(=O)[nH]c1=O,PBMC,IIIB,-,EC50,RT activity,0.001–0.002 µM
CCN(C(=O)OCc1ccccc1)C1CCN(CCC(CN(C)S(=O)(=O)c2ccccc2)c2ccccc2)CC1,PBMC,YU-2 (M-tropic),-,EC95,p24,12.5 µM
Cc1cn([C@@H]2O[C@H](CO[Si](C)(C)C(C)(C)C)[C@@H](O[Si](C)(C)C(C)(C)C)[C@H]2O)c(=O)n(CCO)c1=O,CEM,IIIB,-,EC50,syncytia,>50 µM
Cc1ccnc2c1NC(=O)c1cccnc1N2C1CC1,MT-4,IIIB,-,EC50,cytopathic effect / MTS,0.099 µM
COC(=O)CCn1c(=O)c(C)cn([C@@H]2O[C@H](CO[Si](C)(C)C(C)(C)C)[C@@H](O)[C@H]2O[Si](C)(C)C(C)(C)C)c1=O,MT-4,IIIB,-,EC50,cytopathic effect / trypan blue,>10 µM
CCOC(=O)CCNP(=O)(OC[C@@H]1O[C@H](n2cc(C)c(=O)[nH]c2=O)C[C@H]1N=[N+]=[N-])OC[C@H]1O[C@@H](n2cc(C)c(=O)[nH]c2=O)C[C@@H]1N=[N+]=[N-],MT-4,IIIB,-,EC50,cytopathic effect / MTT,0.79 µM
Fc1cccc(F)c1[C@@H]1SCc2nc3ccccc3n21,MT-4,ADP/141,-,EC50,cytopathic effect,1.63 µM
Cc1cn([C@@H]2O[C@H](CO[Si](C)(C)C(C)(C)C)[C@@H](O)[C@H]2O[Si](C)(C)C(C)(C)C)c(=O)n(CC#N)c1=O,MT-4,IIIB,-,EC50,cytopathic effect / trypan blue,>2 µM
O=c1[nH]cnc2c1ncn2C1C[C@H](CO)CS1,MT-4,-,-,EC50,cytopathic effect,>100 µM
CC(C)(C)OC(=O)N[C@@H](Cc1ccccc1)[C@H](O)CNC[C@@H](O)[C@H](Cc1ccccc1)NC(=O)C(C)(O)C(C)(C)C,PBMC,IIIB,-,EC50,p24,0.04 µM
Cc1cn([C@H]2C[C@H](N=[N+]=[N-])[C@@H](CO)O2)c(=O)[nH]c1=O,H9,-,-,EC50,p24 / ELISA,>50 µM
CCCc1cc(=O)oc2c3c(c4c(c12)OC(C)(C)CC4)O[C@H](C)[C@@H](C)[C@@H]3O,CEM + CEM-SS,RF,-,EC50,XTT,0.23 µM
CN(C(=O)OCc1ccccc1)C1CCN(CCC(CN(C)S(=O)(=O)c2ccccc2)c2ccccc2)CC1,PBMC,YU-2 (M-tropic),-,EC50,p24,<12.5 µM
COc1cc2c(cc1Cc1cccc(Cl)c1F)c(=O)c(C(=O)O)cn2[C@H](CO)C(C)C,PBMC,BaL,-,EC50,RT activity,0.0021 µM
Nc1ccn([C@H]2CC[C@@H](CO)O2)c(=O)n1,HT4 + HT4 LacZ-1,RTMC (RT D67N K70R T215F K219Q),RT-D67N K70R T215F K219Q,EC50,-,0.65 µM
Cc1cn([C@H]2C=C[C@@H](CO[Si](C)(C)C(C)(C)C)O2)c(=O)n(CC(=O)O)c1=O,MT-4,IIIB,-,EC50,cytopathic effect / trypan blue,>10 µM
Cc1cn([C@H]2C[C@H](N=[N+]=[N-])[C@@H](CO)O2)c(=O)[nH]c1=O,MT-4,-,-,EC50,cytopathic effect,0.002 µM
CC(C)Nc1cccnc1N1CCN(C(=O)c2cc3cc(NS(C)(=O)=O)ccc3[nH]2)CC1,PBMC,Resistant (MDR) isolate,RT-M41L K103N T215Y,EC50,RT activity,14.4 µM
COc1ccc(CN[C@@H](C(=O)N[C@H](C(=O)Nc2nc3ccccc3s2)C(C)C)[C@H](O)[C@H](Cc2ccccc2)NC(=O)[C@@H](NC(=O)OCc2ccccc2)C(C)C)cc1,MT-4,IIIB,-,EC50,cytopathic effect / MTT,0.87 µM
CCc1c(Sc2ccccn2)n(COCc2ccccc2)c(=O)[nH]c1=O,CEM,IIIB,-,EC50,cytopathic effect / XTT,0.22 µM
COc1ccc(CN[C@@H](C(=O)N[C@H](C(=O)NCCc2ccc(O)cc2)C(C)C)[C@H](O)[C@H](Cc2ccccc2)NC(=O)[C@@H](NC(=O)OCc2ccccc2)C(C)C)cc1,MT-4,IIIB,-,EC50,cytopathic effect / MTT,1.45 µM
O=c1[nH]cnc2c1ncn2[C@H]1CC[C@@H](CO)O1,MT-4,HXB2D,-,EC50,RT activity,7.8 µM
Cc1cn([C@H]2C[C@H](N=[N+]=[N-])[C@@H](CO)O2)c(=O)[nH]c1=O,PBMC,IIIB,-,EC50,p24,0.003 µM
CCCN(C(=O)Nc1ccccc1)C1CCN(CCC(CN(C)S(=O)(=O)c2ccccc2)c2ccccc2)CC1,PBMC,YU-2 (M-tropic),-,EC50,p24,<6 µM
CC(C)(C)NC(=O)[C@@H]1C[C@@H]2CCCC[C@@H]2CN1C[C@@H](O)[C@H](Cc1ccccc1)NC(=O)[C@H](CC(N)=O)NC(=O)c1ccc2ccccc2n1,MT-4,NL4-3,-,EC50,cytopathic effect / MTT,0.01 µM
COC(=O)[C@@H](Cc1ccc(O)c(O)c1)OC(=O)/C=C/c1ccc(O)c(O)c1/C=C/c1ccc(O)c(O)c1,MT-4,IIIB,-,EC50,p24 / antigen,1.62 µg/mL
CCN1C(=O)N(Cc2cccc(Cl)c2)S(=O)(=O)c2cscc21,CEM,IIIB,-,EC50,syncytia,1.1 µM
CC(C)Nc1cccnc1N1CCN(C(=O)c2cc3cc(NS(C)(=O)=O)ccc3[nH]2)CC1,H9,A1(RT-G190E),RT-G190E,EC50,p24,>10 µg/mL
CCCc1cc(=O)oc2c3c(c4c(c12)OC(C)(C)C=C4)O[C@@H](C)[C@H](C)[C@@H]3O,CEM + CEM-SS,RF,-,EC50,syncytia,0.19 µM
CC[C@H](C)[C@H](NC(=O)Cc1ccccn1)C(=O)N[C@@H](Cc1ccccc1)[C@@H](O)[C@H](O)[C@H](Cc1ccccc1)NC(=O)[C@@H](NC(=O)Cc1ccccn1)[C@@H](C)CC,MT-2,RF,-,EC90,plaque count / virus yield,0.9 µg/mL
O=C(/C=C/c1ccc(O)c2c1[C@H](C(=O)O)[C@@H](c1ccc(O)c(O)c1)O2)O[C@H](Cc1ccc(O)c(O)c1)C(=O)O,MT-4,IIIB,-,EC50,p24 / antigen,3.99 µg/mL
Nc1nc(N)c2ncn([C@H]3C=C[C@@H](OCP(=O)(O)O)O3)c2n1,MT-4,-,-,EC50,-,82.5 µM
Cc1cn([C@H]2C[C@H](CO)CS2)c(=O)[nH]c1=O,MT-4,-,-,EC50,cytopathic effect,>100 µM
CN(C[C@@H](CCN1CCC2(CC1)CS(=O)c1ccccc12)c1ccc(Cl)c(Cl)c1)S(=O)(=O)c1ccccc1,PBMC,YU-2 (M-tropic),-,EC50,p24,<12.5 µM
CC(=O)N[C@H](C(=O)N[C@@H](Cc1ccccc1)C[C@H](O)[C@H](Cc1ccccc1)NC(=O)[C@@H]1CN(c2ccc(F)c(F)c2)C(=O)O1)C(C)C,MT-4,-,-,EC50,MTT,0.36 µM
NC(=S)N=Nc1c(O)cc(Nc2ccc(Cl)cc2Cl)c2ccccc12,CEM,IIIB,-,EC50,cytopathic effect / XTT,89 µM
Cc1cn([C@H]2C[C@H](N=[N+]=[N-])[C@@H](CO)O2)c(=O)[nH]c1=O,MT-4,13MB1 (TIBO-resistant RT L100I),RT-L100I,EC50,MTT,0.0001 µg/mL